Experiments:
Test in all cases: cell-based or functional assay
Chymase = Chymase (Human, UniProt P23946 22-247)
Papain = target: T1, Papain (Papaya, UniProt P00784 134-345)
T1 sequence: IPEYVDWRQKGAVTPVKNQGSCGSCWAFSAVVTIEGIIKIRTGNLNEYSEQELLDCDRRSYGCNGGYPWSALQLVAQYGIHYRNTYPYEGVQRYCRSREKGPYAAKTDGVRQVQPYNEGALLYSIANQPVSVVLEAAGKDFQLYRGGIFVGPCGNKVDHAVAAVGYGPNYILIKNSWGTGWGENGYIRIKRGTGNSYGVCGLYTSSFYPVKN

Caspase 1 = target: T2, Caspase 1 (Human, UniProt P29466 120-404)
T2 sequence: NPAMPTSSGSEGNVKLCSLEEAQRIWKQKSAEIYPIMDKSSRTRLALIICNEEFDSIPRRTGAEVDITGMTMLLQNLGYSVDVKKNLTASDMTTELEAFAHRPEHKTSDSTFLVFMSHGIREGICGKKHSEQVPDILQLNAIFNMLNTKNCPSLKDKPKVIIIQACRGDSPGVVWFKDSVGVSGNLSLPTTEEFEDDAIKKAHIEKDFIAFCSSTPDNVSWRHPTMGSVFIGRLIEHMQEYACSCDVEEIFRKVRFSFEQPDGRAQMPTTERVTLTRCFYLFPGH

Cathepsin G = target: T3, Cathepsin G (Human, UniProt P08311 21-244)
T3 sequence: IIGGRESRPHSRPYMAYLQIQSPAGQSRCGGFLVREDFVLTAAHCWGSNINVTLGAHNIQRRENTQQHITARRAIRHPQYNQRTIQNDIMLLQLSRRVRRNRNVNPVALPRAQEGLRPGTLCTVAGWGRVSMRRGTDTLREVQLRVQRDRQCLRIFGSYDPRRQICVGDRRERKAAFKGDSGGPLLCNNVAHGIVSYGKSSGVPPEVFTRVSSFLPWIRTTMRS

Kallikrein 5 = target: T4, Kallikrein 5 (Human, UniProt Q9Y337 67-293)
T4 sequence: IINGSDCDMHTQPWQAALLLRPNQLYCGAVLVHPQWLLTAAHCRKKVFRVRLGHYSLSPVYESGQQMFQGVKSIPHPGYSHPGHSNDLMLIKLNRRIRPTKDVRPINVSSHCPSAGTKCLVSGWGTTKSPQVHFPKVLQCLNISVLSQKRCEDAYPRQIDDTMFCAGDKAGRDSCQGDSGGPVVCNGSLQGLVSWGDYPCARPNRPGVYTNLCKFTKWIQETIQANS

Plasma Kallikrein = Plasma Kallikrein (Human, UniProt P03952 20-638)
Chymotrypsin = Chymotrypsin (Bovine, UniProt P00766 1-245)
Caspase 11 = target: T5, Caspase 11 (Mouse, UniProt P70343 102-373)
T5 sequence: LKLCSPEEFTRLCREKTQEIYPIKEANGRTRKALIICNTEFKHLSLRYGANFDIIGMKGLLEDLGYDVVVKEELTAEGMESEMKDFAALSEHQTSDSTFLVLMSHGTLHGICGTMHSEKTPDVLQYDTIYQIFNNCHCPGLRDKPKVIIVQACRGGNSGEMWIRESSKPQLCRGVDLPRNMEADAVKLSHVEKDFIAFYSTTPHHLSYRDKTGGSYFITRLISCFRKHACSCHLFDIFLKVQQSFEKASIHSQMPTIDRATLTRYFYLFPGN

Caspase 10 = target: T6, Caspase 10 (Human, UniProt Q92851 220-479)
T6 sequence: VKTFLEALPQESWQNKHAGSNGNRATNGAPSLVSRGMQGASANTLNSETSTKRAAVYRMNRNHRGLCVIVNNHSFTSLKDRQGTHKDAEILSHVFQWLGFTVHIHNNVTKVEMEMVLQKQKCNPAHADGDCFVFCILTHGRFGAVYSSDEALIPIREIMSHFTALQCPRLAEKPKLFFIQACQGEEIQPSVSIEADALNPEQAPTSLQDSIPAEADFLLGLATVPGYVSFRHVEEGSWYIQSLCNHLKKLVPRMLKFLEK

Caspase 2 = target: T7, Caspase 2 (Human, UniProt P42575 150-435)
T7 sequence: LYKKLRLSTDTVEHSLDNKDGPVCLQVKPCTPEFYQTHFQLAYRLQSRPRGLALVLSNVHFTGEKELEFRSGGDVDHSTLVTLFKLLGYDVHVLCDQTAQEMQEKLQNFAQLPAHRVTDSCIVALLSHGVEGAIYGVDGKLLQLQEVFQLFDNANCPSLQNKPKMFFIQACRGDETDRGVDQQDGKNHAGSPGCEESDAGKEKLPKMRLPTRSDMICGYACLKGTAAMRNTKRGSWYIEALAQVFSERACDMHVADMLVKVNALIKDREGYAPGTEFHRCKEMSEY

Tryptase beta 2 = Tryptase beta 2 (Human, UniProt P20231 31-275)
Trypsin = Trypsin (Bovine, UniProt P00760 24-246)
Caspase 9 = target: T8, Caspase 9 (Human, UniProt P55211 131-416)
T8 sequence: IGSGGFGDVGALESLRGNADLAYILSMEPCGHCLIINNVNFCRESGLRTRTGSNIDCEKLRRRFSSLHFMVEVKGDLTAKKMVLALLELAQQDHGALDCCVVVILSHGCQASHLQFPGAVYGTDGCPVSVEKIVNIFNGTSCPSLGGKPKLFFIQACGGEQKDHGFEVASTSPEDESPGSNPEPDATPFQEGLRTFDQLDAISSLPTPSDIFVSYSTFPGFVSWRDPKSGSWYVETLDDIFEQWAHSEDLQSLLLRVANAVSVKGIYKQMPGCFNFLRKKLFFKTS

Matriptase 2 = target: T9, Matriptase 2 (Human, UniProt Q8IU80 78-811)
T9 sequence: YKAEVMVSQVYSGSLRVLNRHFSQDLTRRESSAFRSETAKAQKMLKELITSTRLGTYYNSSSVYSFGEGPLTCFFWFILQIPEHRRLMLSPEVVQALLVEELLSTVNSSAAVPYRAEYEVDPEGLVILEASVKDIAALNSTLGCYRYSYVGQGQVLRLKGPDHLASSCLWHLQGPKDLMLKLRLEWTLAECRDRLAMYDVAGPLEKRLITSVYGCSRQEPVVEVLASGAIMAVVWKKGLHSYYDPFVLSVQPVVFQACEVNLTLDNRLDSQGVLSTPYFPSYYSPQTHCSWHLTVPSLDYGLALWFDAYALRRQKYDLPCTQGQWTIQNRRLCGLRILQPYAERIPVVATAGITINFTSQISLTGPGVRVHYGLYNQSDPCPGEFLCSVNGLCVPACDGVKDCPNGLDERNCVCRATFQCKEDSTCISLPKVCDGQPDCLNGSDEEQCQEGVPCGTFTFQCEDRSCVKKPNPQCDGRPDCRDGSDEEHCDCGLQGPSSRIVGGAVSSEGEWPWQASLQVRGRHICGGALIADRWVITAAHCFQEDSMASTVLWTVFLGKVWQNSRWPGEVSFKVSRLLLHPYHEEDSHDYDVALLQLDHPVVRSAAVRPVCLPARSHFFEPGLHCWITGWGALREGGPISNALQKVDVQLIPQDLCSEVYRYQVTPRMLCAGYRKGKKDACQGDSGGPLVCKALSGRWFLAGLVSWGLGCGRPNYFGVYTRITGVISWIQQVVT

Cathepsin C = Cathepsin C (Human, UniProt P53634 25-463)
Kallikrein 7 = target: T10, Kallikrein 7 (Human, UniProt P49862 23-252)
T10 sequence: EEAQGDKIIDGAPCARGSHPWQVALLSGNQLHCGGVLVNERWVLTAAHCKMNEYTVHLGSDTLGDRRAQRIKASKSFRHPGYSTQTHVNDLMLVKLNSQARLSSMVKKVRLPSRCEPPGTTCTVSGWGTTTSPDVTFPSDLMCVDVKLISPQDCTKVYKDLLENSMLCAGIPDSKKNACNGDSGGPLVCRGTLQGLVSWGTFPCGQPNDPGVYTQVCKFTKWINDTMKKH

B1: WT MQ1 peptide (prior art) (peptide)
peptide: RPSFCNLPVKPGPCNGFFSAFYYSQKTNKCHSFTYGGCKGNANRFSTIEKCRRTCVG
With B1 the “Compound IC50 (M), protease activity assay” value (“Compound IC50 (M)” for short) (Chymase) was 1.82e-05 M, the “Compound IC50 (M)” value (Papain) was 1.76e-05 M and the “Compound IC50 (M)” value (Caspase 1) was 3.71e-05 M. The “Compound IC50 (M)” value (Cathepsin G) was 8.54e-06 M, the “Compound IC50 (M)” value (Kallikrein 5) was 5.77e-06 M and the “Compound IC50 (M)” value (Plasma Kallikrein) was 3.89e-06 M. The “Compound IC50 (M)” value (Chymotrypsin) was 2.74e-06 M, the “Compound IC50 (M)” value (Caspase 11) was 1.4e-05 M and the “Compound IC50 (M)” value (Caspase 10) was 9.33e-06 M. The “Compound IC50 (M)” value (Caspase 2) was 4.25e-05 M, the “Compound IC50 (M)” value (Tryptase beta 2) was 3.63e-06 M and the “Compound IC50 (M)” value (Trypsin) was 3.69e-06 M. The “Compound IC50 (M)” value (Caspase 9) was 8.94e-06 M, the “Compound IC50 (M)” value (Matriptase 2) was 1.16e-07 M and the “Compound IC50 (M)” value (Cathepsin C) was 4.59e-05 M. For the same binder, the “Compound IC50 (M)” value (Kallikrein 7) was 3.65e-06 M.
